In PMC6902002, “Recognition and processing of branched DNA substrates by Slx1–Slx4 nuclease”:

System: Cg-Slx1-Slx4CCD WT (Candida glabrata)
Experiment: fluorescence anisotropy
Conditions: 2.5 mM Ca2+; Fluorescence anisotropy: 20 mM HEPES pH 7.5, 2.5 mM CaCl2, 100 mM NaCl, 0.1 mg/ml BSA, 25 C; 25 nM DNA, 0-500 nM protein; recombinant protein; label: 5'-fluorescein on X0-1, 3'-Cy5 on X0-4; folded or branched DNA

“ACGCTGCCGAATTCTACCAGTGCCTTGCTAGGACATCTTTGCCCACCTGCAGGTTCACCC / CGATAGTCGGATCCTCTAGACAGCTCCATGTAGCAAGGCACTGGTAGAATTCGGCAGCGT / GGGTGAACCTGCAGGTGGGCAAAGATGTCC [5'-flap substrate]”: binds.

Construct, isoform or probe ends are uncertain for at least one entry. At least one verdict was read from the data and is not stated in words by the source.
